Measurements reported in PubChem BioAssay AID504761 (Drosophila RNAi Screening Center, 2011).
The screen tested about 22,000 reagents; below is an unselected part of those that have a named target and a result. Over the whole deposit, 116 (0.52%) were called active. 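Calls depend on retest data that are not deposited; infection was ranked per plate without normalising between plates; the unit of the infection score is not given.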 The raw values are shown without normalisation. A number with no mark means an inactive call. A plus sign joins genes that one reagent is predicted to hit. The record does not give: the amount of reagent, the time to read-out.

Screen: 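Genome-wide fly cell screen for genes dengue virus requires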 (primary screen)
Cell system: D.Mel-2 cells from Drosophila
Reagents: long dsRNA against Drosophila genes
Challenge: infection with dengue virus type 2; dose and infection time not stated
Measured: 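Cells stained for dengue envelope protein and imaged; percent of infected cells per well on duplicate plates, ranked by infection, with stained nuclei counted for cell number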
Direction: infection score: higher = more virus-infected cells; cell count: higher = more cells in the well
Rule for the call: 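Low infection ranks in the two replicates (chance level up to 0.065) followed by a retest with a 1.5-fold or larger significant decrease, p below 0.05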
Meaning of the calls: active = confirmed: knock-down lowers infection; inactive = not picked or not confirmed

no.	target gene	DRSC id	infection score, replicate 1	infection score, replicate 2	cell count, replicate 1	cell count, replicate 2
1	Hsepi	DRSC04986	13	8.99	5415	5884
2	Hsepi	DRSC26089	16.6	5.92	5217	6550
3	Chrac-16	DRSC20343	4.94	1.2	6432	6608
4	Chrac-16	DRSC23575	6.42	6.22	5998	5308
5	CG4839	DRSC02783	12.7	6.25	6373	6176
6	CG4839	DRSC02784	1.22	3.11	6863	6341
7	Lipt1	DRSC07183	14.9	6.13	6179	6310
8	eys	DRSC00402	8.73	2	6395	6487
9	eys	DRSC00403	6.17	8.76	6081	5572
10	eys	DRSC00695	3.18	1.88	6194	6444
11	CG9143	DRSC07338	12.8	14.1	4809	2458
12	CG11279	DRSC09837	2.46	2.87	6311	6234
13	CG5327 + CG5493	DRSC25926	9.29	16.9	6095	5913
14	CG8399	DRSC07163	10.6	26.4	5282	5281
15	sand	DRSC07245	12.2	7.54	5636	6563
16	Gapvd1	DRSC19752	2.48	0.39	6723	6888
17	Gapvd1	DRSC24025	6.92	2.64	5993	5984
18	CG12825	DRSC06174	0.97	14.5	6364	5230
19	CG12825	DRSC26984	2.11	24.9	6544	5922
20	sta	DRSC18838	5.18	2.46	6019	6349
21	sta	DRSC25879	9.55	8.6	1749	2197
22	Rep	DRSC07526	12.6	0.24	3918	411
23	Polr2G	DRSC16068	8.71	33.8	1298	4514
24	E(spl)mgamma-HLH	DRSC16699	13.3	1.55	6497	7164
25	E(spl)mgamma-HLH	DRSC25532	3.23	2.12	6153	6602
26	Mt2	DRSC03374	2.1	3.08	6756	6554
27	Mks1	DRSC19697	3.37	1.56	6648	6881
28	CG13375	DRSC18621	0.69	0.41	6990	6863
29	Exd2	DRSC16105	18.3	3.76	6260	6334
30	Exd2	DRSC25938	1.15 (active)	0.5	6444	6235
31	CG7484	DRSC10853	6.09	1.99	6007	6190
32	Camp	DRSC07004	13.9	7.42	6064	3533
33	CG7806	DRSC03071	5.77	1.96	6062	6313
34	Veneno	DRSC16537	3.31	2.86	6437	6859
35	alph	DRSC15398	5.65	7.19	5614	6245
36	alph	DRSC28570			378	410
37	Rpn11	DRSC03422	1.7	1.52	1352	1518
38	robo2	DRSC00377	2.2	6.26	6694	6450
39	robo2	DRSC00378	12.2	8.49	6942	7008
40	robo2	DRSC00686	13.3	12.2	7242	6596
41	robo2	DRSC00691	3.21	11	6384	5185

Targets above whose target name starts with G or g (2):
target gene	DRSC id	infection score, replicate 1	infection score, replicate 2	cell count, replicate 1	cell count, replicate 2
Gapvd1	DRSC19752	2.48	0.39	6723	6888
Gapvd1	DRSC24025	6.92	2.64	5993	5984
